# Data as given in PubChem BioAssay AID1259414 (Drosophila RNAi Screening Center, 2018).
# Aim: 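Genome-wide screen for host control of endosymbiont load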 (primary screen)
# Cells: Drosophila JW18 cells infected with Wolbachia
# Knock-down reagent: long dsRNA against Drosophila genes, 0.25 µg dsRNA per well of a 384-well plate
# Time to read-out: 5 days
# Challenge: cells persistently infected with Wolbachia before knock-down; no added drug
# Read-out: 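Imaged fluorescence in situ signal for Wolbachia 23S rRNA per DAPI-counted host cell, given as a robust z-score within each plate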
# Direction: Wolbachia per cell robust z: higher = more Wolbachia per host cell than the plate typical
# Active means: 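Active if absolute robust z reaches 1.5 in two or more of three replicates, leaving out multi- or no-target dsRNAs, genes unexpressed in JW18 and A1 wells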
# In all, the deposit lists about 24,000 reagents; this is an unselected part of those with a known target gene and a result. Over the whole deposit, about 1,210 (5%) are marked active. 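Inactive calls also include excluded dsRNAs with several or no targets, genes unexpressed in JW18, and well A1, regardless of score.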 A plus sign joins genes that one reagent is predicted to hit.
Gene,DRSC id,"Wolbachia per cell robust z, rep 1","Wolbachia per cell robust z, rep 2","Wolbachia per cell robust z, rep 3",call
CG10479,DRSC23395,-2.17,-0.474,0.468,inactive
CG7763,DRSC07043,-1.19,-4.82,-0.124,inactive
CG15601,DRSC19670,-0.284,-2.01,0.614,inactive
Synd (Syndapin),DRSC15116,0.531,0.0113,1.55,inactive
Sp7 (Serine protease 7),DRSC15461,0.171,-0.0765,0.135,inactive
Jhbp16 (Juvenile hormone binding protein 16),DRSC15039,0.78,0.775,0.971,inactive
CG9452,DRSC11075,0.248,-0.217,-0.826,inactive
CG9452,DRSC23344,0.546,-3.54,-0.619,inactive
Rcd7 (Reduction in Cnn dots 7),DRSC10100,-0.583,-0.291,-0.516,inactive
CG4707,DRSC04483,0.535,-1.72,1,inactive
Arp6 (Actin-related protein 6),DRSC19326,0.832,-0.131,0.973,inactive
Ms (Myosuppressin),DRSC16041,0.22,-6.59,0.0979,inactive
Ms (Myosuppressin),DRSC29774,-0.664,0.322,1.06,inactive
CG5555,DRSC15834,-0.247,1.16,3.1,inactive
CG3008,DRSC00560,-0.464,0.91,0.442,inactive
Trax (Translin associated factor X),DRSC15709,0.359,-0.059,-0.56,inactive
CG7465,DRSC08592,-1.01,0.258,-0.531,inactive
CG7465,DRSC22320,1.12,0.698,0.852,inactive
CG7465,DRSC23943,-0.688,-13.7,-0.997,inactive
Corp (Companion of reaper),DRSC17771,2.1,0.43,1.63,active
Corp (Companion of reaper),DRSC24622,0.892,-0.167,0.926,inactive
CG11788,DRSC06084,-3.75,-0.128,0.513,inactive
CG14710,DRSC14933,0.639,0.268,0.168,inactive
CG15209,DRSC19655,-0.64,0.413,-0.588,inactive
p24-2 + Unc-115b,DRSC16492,0.0798,0.8,-0.178,inactive
CanA-14F (Calcineurin A at 14F),DRSC23296,-0.0583,0.291,-0.557,inactive
CG31624,DRSC02617,-1.49,0.749,0.656,inactive
Polr1F (RNA polymerase I subunit F),DRSC02278,0.0523,0.856,-0.705,inactive
Polr1F (RNA polymerase I subunit F),DRSC28047,1.09,0.697,-0.133,inactive

4 neighbouring entries from above, for reference:
Gene,DRSC id,"Wolbachia per cell robust z, rep 1","Wolbachia per cell robust z, rep 2","Wolbachia per cell robust z, rep 3",call
CG15209,DRSC19655,-0.64,0.413,-0.588,inactive
p24-2 + Unc-115b,DRSC16492,0.0798,0.8,-0.178,inactive
CanA-14F (Calcineurin A at 14F),DRSC23296,-0.0583,0.291,-0.557,inactive
CG31624,DRSC02617,-1.49,0.749,0.656,inactive
